A mixed list of measured activities; the numbers were collected in NIAID ChemDB.

All rows: whole-cell or culture tests; species: HIV-1; cells: CEM; measure: EC50

Neighbouring rows are from separate reports. Blank or dashed fields: not listed here. ECn: concentration that inhibits the pathogen or its effect by n%.

SMILES	strain or isolate	mutations	method	conditions	result
Cc1cn([C@H]2C[C@H](N=[N+]=[N-])[C@@H](CO)O2)c(=O)[nH]c1=O	-	-	RT activity	-	>0.00015 µg/mL
Cc1cn([C@@H]2O[C@H](CO[Si](C)(C)C(C)(C)C)C3(OS(=O)(=O)C=C3N)[C@H]2O[Si](C)(C)C(C)(C)C)c(=O)n(C)c1=O	IIIB	RT-Y181C	cytopathic effect	-	0.33 µg/mL
Cc1ccnc2c1NC(=O)c1cccnc1N2C1CC1	IIIB TIBO R82913 STR-B02 (RT L100I E138K)	RT-L100I E138K	syncytia	-	0.02 µM
Cc1cn([C@H]2C[C@H](N=[N+]=[N-])[C@@H](CO)O2)c(=O)[nH]c1=O	IIIB	RT-L100I	syncytia	-	0.002 µg/mL
Nc1ncnc2c1ncn2CCOCP(=O)(O)O	IIIB-Nevirapine(0.1)(RT-Y181C)	RT-Y181C	syncytia	-	8.5 µM
Nc1ccn([C@H]2CC[C@@H](CO)O2)c(=O)n1	IIIB TIBO R82913 STR-B02 (RT L100I E138K)	RT-L100I E138K	syncytia	-	0.015 µM
CCOP(=O)(CC[C@]1(CO)C=C[C@H](n2cnc3c(N)ncnc32)C1)OCC	-	-	-	-	47.5 µM
Cc1cn([C@@H]2O[C@H](CO[Si](C)(C)C(C)(C)C)[C@@]3(OS(=O)(=O)C=C3N)[C@H]2O[Si](C)(C)C(C)(C)C)c(=O)[nH]c1=O	IIIB TIBO R82150-resistant (RT L100I)	RT-L100I	syncytia	-	0.21 µM
COC(=O)CCn1c(=O)c(C)cn([C@@H]2O[C@H](CO[Si](C)(C)C(C)(C)C)[C@@H](O)[C@H]2O[Si](C)(C)C(C)(C)C)c1=O	IIIB	-	syncytia	-	>10 µM
CC(C)(S)[C@@H](N)C(=O)O	IIIB	-	cytopathic effect / MTT	-	>100 µM
Fc1cccc(F)c1C1SCc2nc3ccccc3n21	Nevirapine-resistant (RT V106A)	RT-V106A	cytopathic effect / MTT	-	7.63 µM
Cc1cn([C@@H]2O[C@H](COC(=O)c3ccccc3)[C@@H](O)[C@H]2OC(=O)c2ccccc2)c(=O)n(CC(=O)O)c1=O	IIIB	-	syncytia	-	>50 µM
Cc1cn([C@@H]2O[C@H](CO[Si](C)(C)C(C)(C)C)C3(OS(=O)(=O)C=C3N)[C@H]2O[Si](C)(C)C(C)(C)C)c(=O)n(C)c1=O	IIIB TIBO R82913 STR-1 (RT L100I Y181C)	RT-L100I Y181C	syncytia	-	>50 µM
Cc1cn([C@H]2C[C@H](N=[N+]=[N-])[C@@H](CO)O2)c(=O)[nH]c1=O	IIIB-TIBO(0.1)	-	syncytia	-	0.008 µM
CC(C)Nc1cccnc1N1CCN(C(=O)c2cc3cc(NS(C)(=O)=O)ccc3[nH]2)CC1	IIIB	RT-E138K	syncytia	-	0.033 ± 0.011 µM
Cc1cn([C@@H]2O[C@H](CO[Si](C)(C)C(C)(C)C)C3(OC(=O)N=C3N)[C@H]2O[Si](C)(C)C(C)(C)C)c(=O)[nH]c1=O	IIIB	-	syncytia	-	>35 µM
C[C@@H](Cn1cnc2c(N)nc(N)nc21)OCP(=O)(O)O	HE	-	syncytia	-	25 µM
COC(=O)Cn1c(=O)c(C)cn([C@H]2C[C@H](N=[N+]=[N-])[C@@H](CO[Si](C)(C)C(C)(C)C)O2)c1=O	IIIB	-	syncytia	-	>10 µM
Nc1cc(OCCOCP(=O)(O)O)nc(N)n1	Clinical isolate L6.5	RT-S68G K70T V75I F77L K103N F116Y Q151M K219R	syncytia	-	1.85 µg/mL
O=c1[nH]c(=O)n([C@H]2C[C@H](F)[C@@H](CO)O2)cc1C(OCC(F)(F)F)OCC(F)(F)F	-	-	p24	-	15 µg/mL
C[C@H](Cn1cnc2c(N)ncnc21)OCP(=O)(O)O	HE	-	syncytia	-	17 µM
CCOCn1c(Cc2cc(C)cc(C)c2)c(CC)c(=O)[nH]c1=O	IIIB TIBO R82913 STR-B22 (RT L100I Y188H)	RT-L100I Y188H	syncytia	-	0.12 µM
Nc1nc(N)c2ncn(CC(OCCF)OCP(=O)(O)O)c2n1	-	-	cytopathic effect	-	100 µg/mL
Fc1cccc(Cl)c1C1OCc2nc3ccccc3n21	IIIB	-	cytopathic effect / MTT	-	6.24 µM
CC(C)(C)[Si](C)(C)OC[C@H]1O[C@@H](n2ccc(=O)n(CC(=O)O)c2=O)[C@H](O)[C@@H]1O[Si](C)(C)C(C)(C)C	IIIB	-	syncytia	-	≥10 µM
CCN(CC)C(=O)c1ccc(B(O)O)cc1	IIIB	-	syncytia	-	>250 µM
C[C@H](Cn1cnc2c(N)ncnc21)OCP(=O)(O)O	IIIB	RT-L100I	syncytia	-	1.1 µg/mL
Fc1cccc(F)c1C1SCc2nc3ccccc3n21	IIIB	-	cytopathic effect	-	1.4 µM
O=c1[nH]cnc2c1ncn2[C@H]1CC[C@@H](CO)O1	IIIB	RT-E138K	syncytia	-	12 ± 11.3 µM
O=C(O)CCc1ccc(B(O)O)cc1	IIIB	-	syncytia	-	>250 µM
Nc1ncnc2c1ncn2CCOCP(=O)(O)O	IIIB TSAO-T(RT-E138K)	RT-E138K	syncytia	-	15 µM
OB(O)c1ccccc1	IIIB	-	syncytia	-	>250 µM
Nc1ccn([C@H]2CC[C@@H](CO)O2)c(=O)n1	IIIB-Pyridinone(0.1)(RT-V179N	RT-V179N	syncytia	-	0.02 µM
Cc1cn([C@@H]2O[C@H](CO[Si](C)(C)C(C)(C)C)C3(OC(=O)N(C)C3=N)[C@H]2O[Si](C)(C)C(C)(C)C)c(=O)n(C)c1=O	IIIB	-	syncytia	-	>35 µM
Cc1ccnc2c1NC(=O)c1cccnc1N2C1CC1	IIIB	RT-Y181C	syncytia	-	2.2 µg/mL
O=c1[nH]c(=O)n([C@H]2C[C@H](O)[C@@H](CO)O2)cc1COCC(F)(F)F	-	-	p24	-	>100 µg/mL
CCc1cc(NCc2nc3c(Cl)ccc(Cl)c3o2)c(=O)[nH]c1C	A018A/H112-2	-	p24	clinical isolate	<0.25 µM
CC(C)=CCN1Cc2cc(Cl)cc3[nH]c(=S)n(c23)C[C@@H]1C	IIIB	RT-E138K	cytopathic effect	-	0.3 µg/mL
O=c1[nH]c2ccc(Cl)cc2n1Cc1c(F)cccc1F	-	RT-L100I	cytopathic effect	-	2 µM
Cc1c(N)nc(N)nc1OCCOCP(=O)(O)O	Clinical isolate C20	RT-M41L D67N V118I M184V L210W T215Y	syncytia	-	1 µg/mL
CC(=O)N[C@@H](CS)C(=O)O	IIIB	-	cytopathic effect / MTT	-	>100 µM
Nc1nc(N)c(C=O)c(OCCOCP(=O)(O)O)n1	IIIB	-	syncytia	-	1.3 µg/mL
O=C(NC1CC1)c1ccc(B(O)O)cc1	IIIB	-	syncytia	-	>250 µM
Nc1ncnc2c1ncn2CCOCP(=O)(O)O	IIIB	-	syncytia	-	1.5 µg/mL
Fc1ccc(F)c(C2OCc3nc4ccccc4n32)c1	IIIB	-	cytopathic effect	-	6.2 µM

3 of the rows above, restated:

SMILES	strain or isolate	mutations	method	conditions	result
Cc1cn([C@H]2C[C@H](N=[N+]=[N-])[C@@H](CO)O2)c(=O)[nH]c1=O	-	-	RT activity	-	>0.00015 µg/mL
CCN(CC)C(=O)c1ccc(B(O)O)cc1	IIIB	-	syncytia	-	>250 µM
Nc1ccn([C@H]2CC[C@@H](CO)O2)c(=O)n1	IIIB TIBO R82913 STR-B02 (RT L100I E138K)	RT-L100I E138K	syncytia	-	0.015 µM